The nature of the data set: Recovery from standard fortified blank milk samples by FPA. The note with it: n = 6.

The values below come from PMC9735679, “Identification and Evolution of a Natural Tetr Protein Based on Molecular Docking and Development of a Fluorescence Polari-Zation Assay for Multi-Detection of 10 Tetracyclines in Milk” (Foods, 2022).

For the compound `CN(C)[C@@H]1C(O)=C(C(N)=O)C(=O)[C@@]2(O)C(O)=C3C(=O)c4c(O)ccc(Cl)c4[C@@](C)(O)[C@H]3C[C@@H]12` [CTC, chlortetracycline], under “added 10 ng/g”, the “Inter-Assay Recovery” value amounted to 81.2% and the “Intra-Assay Recovery” value is listed as 78.6%. Besides, where the note is “added 100 ng/g”, the “Inter-Assay Recovery” value is reported as 87.4% and the “Intra-Assay Recovery” value came out at 81.2%.
Turning to `C[C@H]1c2cccc(O)c2C(=O)C2=C(O)[C@]3(O)C(=O)C(C(N)=O)=C(O)[C@@H](N(C)C)[C@@H]3[C@@H](O)[C@@H]21` [DC, doxycycline], where the note is “added 10 ng/g”, the “Inter-Assay Recovery” value is 71.5% and the “Intra-Assay Recovery” value amounted to 90.7%. Further, where the note is “added 100 ng/g”, the “Inter-Assay Recovery” value was determined as 92.4% and the “Intra-Assay Recovery” value was found to be 95.1%.
Consider `CN(C)[C@@H]1C(O)=C(C(N)=O)C(=O)[C@@]2(O)C(O)=C3C(=O)c4c(O)ccc(Cl)c4[C@@H](O)[C@H]3C[C@@H]12` [DMC, demeclocycline], for which, where the note is “added 10 ng/g”, the “Inter-Assay Recovery” value stood at 79.4% and the “Intra-Assay Recovery” value was 77.4%. Also, under “added 100 ng/g”, the “Inter-Assay Recovery” value worked out at 84.4% and the “Intra-Assay Recovery” value was found to be 86.8%.
On the same counts, the results for `CN(C)c1ccc(O)c2c1C[C@H]1C[C@H]3[C@H](N(C)C)C(O)=C(C(N)=O)C(=O)[C@@]3(O)C(O)=C1C2=O` [MC, minocycline] are 73.5%, 85.2%, 86.2% and 93.3%.
With `C=C1c2cccc(O)c2C(=O)C2=C(O)[C@]3(O)C(=O)C(C(N)=O)=C(O)[C@@H](N(C)C)[C@@H]3[C@@H](O)[C@H]12` [MTC, Methacycline], under “added 10 ng/g”, the “Inter-Assay Recovery” value was found to be 83.1% and the “Intra-Assay Recovery” value is recorded as 79.2%. Under “added 100 ng/g”, the “Inter-Assay Recovery” value was 91.2% and the “Intra-Assay Recovery” value is on record as 78.5%.
As to `CN(C)[C@@H]1C(O)=C(C(N)=O)C(=O)[C@@]2(O)C(O)=C3C(=O)c4c(O)cccc4[C@@](C)(O)[C@H]3[C@H](O)[C@@H]12` [OTC, oxytetracycline], under “added 10 ng/g”, the “Inter-Assay Recovery” value was found to be 75.7% and the “Intra-Assay Recovery” value is given as 91.3%. For the same compound, under “added 100 ng/g”, the “Inter-Assay Recovery” value worked out at 79.8% and the “Intra-Assay Recovery” value is on record as 86.5%.
Regarding `CN(C)[C@@H]1C(O)=C(C(N)=O)C(=O)[C@@]2(O)C(O)=C3C(=O)c4c(O)cccc4C[C@H]3C[C@@H]12` [SC, Sancycline], where the note is “added 10 ng/g”, the “Inter-Assay Recovery” value worked out at 78.2% and the “Intra-Assay Recovery” value worked out at 83.4%. Moreover, for the setting “added 100 ng/g”, the “Inter-Assay Recovery” value amounted to 91.2% and the “Intra-Assay Recovery” value amounted to 90.5%.
On the same counts, the results for `CN(C)c1cc(NC(=O)CNC(C)(C)C)c(O)c2c1C[C@H]1C[C@H]3[C@H](N(C)C)C(O)=C(C(N)=O)C(=O)[C@@]3(O)C(O)=C1C2=O` [TIC, tigecycline] are 76.8%, 85.3%, 84.3% and 84.2%.
